Reference: PubChem BioAssay AID504761 (Drosophila RNAi Screening Center, 2011)
The screen tested about 22,000 reagents; shown is a random part of those that have a named target and a result. Over the whole deposit, 116 (0.52%) got an active call. 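Calls depend on retest data that are not deposited; infection was ranked per plate without normalising between plates; the unit of the infection score is not given.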 Raw values vary from plate to plate and are shown uncorrected. Entries without a mark were called inactive. The numbers tell different reagents against one gene apart. Further read-outs or replicates are left out here. Reagent sequences are not shown. Not given: the amount of reagent, the time to read-out.

Assay: 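Fly genes whose silencing reduces dengue virus type 2 infection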 (primary screen)
System: D.Mel-2 cells from Drosophila
Reagents: long dsRNA against Drosophila genes
Treatment: infection with dengue virus type 2; dose and infection time not stated
Detection: 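Cells stained for dengue envelope protein and imaged; percent of infected cells per well on duplicate plates, ranked by infection, with stained nuclei counted for cell number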
Reading the numbers: infection score: higher = more virus-infected cells; cell count: higher = more cells in the well
Active means: 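Low infection ranks in the two replicates (chance level up to 0.065) followed by a retest with a 1.5-fold or larger significant decrease, p below 0.05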
Meaning of the calls: active = confirmed: knock-down lowers infection; inactive = not picked or not confirmed

gene | reagent no. | infection score, replicate 1 | infection score, replicate 2 | cell count, replicate 1
Secp43 | 1 | 1.58 | 16.4 | 6138
Secp43 | 2 | 6.08 | 4.09 | 6430
CG3226 | 1 | 5.73 | 0.34 | 6689
CG11180 | 1 | 8.73 | 16.1 | 5705
CG11180 | 2 | 14.2 | 16.6 | 6146
MED26 | 1 | 5.93 | 1.33 | 6218
MED26 | 2 | 9.99 | 3.23 | 891
MED26 | 3 | 1.96 | 21.4 | 6218
CG31815 | 1 | 3.3 | 4.51 | 5459
CG31815 | 2 | 12.4 | 14.9 | 4558
nmdyn-D7 | 1 | 1.33 | 0.9 | 6242
CG1571 | 1 | 2.39 | 1.65 | 6247
CycB | 1 | 12 | 23.1 | 5853
ND-49L | 1 | 3.07 | 9.12 | 6410
ND-49L | 2 | 10.8 | 7.64 | 6550

Continued, starting with the last 2 of the part before.
gene | reagent no. | infection score, replicate 1 | infection score, replicate 2 | cell count, replicate 1
ND-49L | 1 | 3.07 | 9.12 | 6410
ND-49L | 2 | 10.8 | 7.64 | 6550
Sfxn1-3 | 1 | 1.93 | 4.76 | 5790
CG5742 | 1 | 17.8 | 15.6 | 5940
CG5742 | 2 | 15.8 | 19.4 | 6631
Tig | 1 | 3.92 | 5.68 | 6231
Tig | 2 | 9.1 | 9.14 | 2636
Ciao1 | 1 | 14.1 | 11.2 | 6060
CG12674 | 1 | 14.2 | 11.3 | 5620
Tcs3 | 1 | 1.62 | 2.42 | 5812
Tcs3 | 2 | 6.09 | 4.67 | 6090
CCAP-R | 1 | 2.41 | 5.05 | 6724
CCAP-R | 2 | 2.82 | 3.96 | 6622
CCAP-R | 3 | 0.97 | – | 413
Jon65Ai | 1 | 1.1 | 4.75 | 5982
Jon65Ai | 2 | 5.3 | 5.04 | 6033
Cdc16 | 1 | 2.47 | 2.69 | 2515
thr | 1 | 7.38 | 3.36 | 5259
Klp61F | 1 | 18.2 | 8.99 | 411
Klp61F | 2 | 7.17 | 17.8 | 237
CG10663 | 1 | 12.2 | 16.3 | 5643
GILT2 | 1 | 2.82 | 6.77 | 6959
CG6761 | 1 | 6.13 | 5.34 | 6557
CG42326 | 1 | 15.7 | 17.5 | 5602
CG42326 | 2 | 13 | 3.25 | 6038
CG42326 | 3 | 15.6 | 9.85 | 6128
